Results published in patent US6844358B2, “Phenyl oxo-acetic acids useful in the treatment of insulin resistance and hyperglycemia” (Wyeth, priority 1998, dated 2005).

Tests used:
[1] = test system: Human recombinant PTP1B (hPTP1B); experiment: Inhibition of tri-phosphorylated insulin receptor dodecaphosphopeptide dephosphorylation by hPTP1B; format: biochemical; details: reference standards; enzyme form (rPTP1B/hPTP1B) not given
[2] = test system: rat hepatic microsomal PTPases; experiment: Inhibition of tri-phosphorylated insulin receptor dodecaphosphopeptide dephosphorylation by rat hepatic PTPases; details: 50 μM compound, rat hepatic microsomal PTPase

Structure (SMILES): O=[As]c1ccccc1 (centres unmarked)
- % change from control at 10 μM [1]: 39.7%
- % Change from Control at 50 μM [2]: −57%
